A mixed list of measured activities; the numbers were collected in NIAID ChemDB.

Common to all: whole-cell or culture tests; organism: HIV-1; read by: RT activity; read-out: EC50

Neighbouring rows are from separate reports.

smiles | cells | strain or isolate | setting | changes | result
Nc1ncnc2c1ncn2CCOCP(=O)(O)O | PBMC | LAI | - | - | 0.42 µM
C[n+]1ccc(-c2c3nc(c(-c4ccccc4)c4ccc([nH]4)c(-c4cc[n+](C)cc4)c4nc(c(-c5ccccc5)c5ccc2[nH]5)C=C4)C=C3)cc1 | PBMC | LAV | - | - | 0.34–1.87 µM
Cc1cn([C@H]2C[C@H](N=[N+]=[N-])[C@@H](CO)O2)c(=O)[nH]c1=O | Macrophage | DV | - | - | 0.0008 µM
CC(=O)OC[C@H]1O[C@@H](SCCOP(=O)(OCCS[C@@H]2O[C@H](CO)[C@@H](O)[C@H](O)[C@H]2O)OC[C@H]2O[C@@H](n3cc(C)c(=O)[nH]c3=O)C[C@@H]2N=[N+]=[N-])[C@H](OC(C)=O)[C@@H](OC(C)=O)[C@@H]1OC(C)=O | PBMC | BaL | - | - | 0.01 µM
O=c1[nH]cnc2c1ncn2[C@H]1CC[C@@H](CO)O1 | CEM | IIIB | - | - | 2.6 µg/mL
Cc1cn([C@H]2C[C@H](N=[N+]=[N-])[C@@H](CO)O2)c(=O)[nH]c1=O | PBMC | ROJO | - | - | 0.14 µM
Nc1nc(=O)n([C@@H]2CS[C@H](CO)O2)cc1F | PBMC | LAI | - | - | 0.008 µM
Nc1nc(=O)n([C@@H]2CC[C@H](CO)O2)cc1Cl | PBMC | LAV | - | - | >100 µM
CC[C@@H](C(=O)[C@@H](C)[C@@H](O)[C@H](C)[C@@H]1O[C@@H]([C@@H](CC)C(=O)O)CC[C@@H]1C)[C@H]1O[C@@]2(C=C[C@@H](O)[C@@]3(CC[C@@](C)([C@H]4CC[C@](O)(CC)[C@H](C)O4)O3)O2)[C@H](C)C[C@@H]1C | H9 | IIIB | - | - | 0.4 µg/mL
NC[C@H](Cl)[C@@H](O)c1csc(N)n1 | PBMC | BaL | - | - | 100 µM
Nc1nc(=O)n([C@@H]2CS[C@H](CO)O2)cc1F | PBMC | XXBRU PITT | - | - | 0.0046 µM
CC(=O)OC[C@H]1O[C@@H](SCCOP(=O)(OCS[C@@H]2O[C@H](COC(C)=O)[C@@H](OC(C)=O)[C@H](OC(C)=O)[C@H]2OC(C)=O)OC[C@H]2O[C@@H](n3cc(C)c(=O)[nH]c3=O)C[C@@H]2N=[N+]=[N-])[C@H](OC(C)=O)[C@@H](OC(C)=O)[C@@H]1OC(C)=O | MM + M/M | LAI | - | - | 0.2 µM
COC(=O)c1ccc([C@H]2OOC3(CCC[C@@H](C)C3)[C@@H](OC)O2)cc1 | PBMC | LAV | - | - | >100 µM
CC(=O)Oc1cc(OC(C)=O)c(OC(C)=O)c(=O)c(OC(C)=O)c1 | CEM + CEM-SS | LAI | - | - | 5 µM
CCCCCCCCOC(=O)P(=O)(OC[C@H]1O[C@@H](n2cc(C)c(=O)[nH]c2=O)C[C@@H]1N=[N+]=[N-])OC[C@H]1O[C@@H](n2cc(C)c(=O)[nH]c2=O)C[C@@H]1N=[N+]=[N-] | CEM + CEM TK- | LAI | - | - | >1 µM
CCCCCc1ccc(-c2cc3cn(COCCO)c(=O)nc3o2)cc1 | PBMC | LAI | - | - | >100 µM
Cc1cn([C@H]2C[C@H](N=[N+]=[N-])[C@@H](CO)O2)c(=O)nc1N | PBMC | LAV | - | - | 0.09 µM
Cc1cn([C@H]2C[C@H](N=[N+]=[N-])[C@@H](COP(=O)(O)OC[C@H]3OC(O)[C@H](O)[C@@H](O)[C@@H]3O)O2)c(=O)[nH]c1=O | U-937 | LAV-Bru | 14 d | - | >25 µM
Cc1ccc(-c2c3nc(c(-c4ccc(C)cc4)c4ccc([nH]4)c(-c4ccc(C)cc4)c4nc(c(-c5ccc(C)cc5)c5ccc2[nH]5)C=C4)C=C3)cc1 | PBMC | LAV | - | - | 0.754–10 µM
CC(C)(C)NC(=O)[C@@H]1C[C@@H]2CCCC[C@@H]2CN1C[C@@H](O)[C@H](Cc1ccccc1)NC(=O)[C@H](CC(N)=O)NC(=O)c1ccc2ccccc2n1 | HuT-78 + HUT 78 | MVP-5190 | - | - | <0.02 µM
Nc1nc2c(ncn2[C@@H]2C[C@H](CO)[C@@H](O)[C@H]2O)c(=O)o1 | CEM | IIIB | - | - | 240 µg/mL
CC(C)CN(C[C@@H](O)[C@H](Cc1ccccc1)NC(=O)O[C@H]1CCOC1)S(=O)(=O)c1ccc(N)cc1 | MT-2 | BRU | - | - | 0.0398 µM
CC(C)(C)C(=O)SCCOC(=O)P(=O)(OCCSC(=O)C(C)(C)C)OCCSC(=O)C(C)(C)C | CEM + CEM-SS | LAI | - | - | >10 µM
Nc1nc2c(ncn2[C@@H]2C[C@H](COP(=O)(O)O)[C@@H](O)[C@H]2O)c(=O)o1 | U-937/HIV-1(IIIB) + U-937 | IIIB | chronic infection | - | >100 µg/mL
Nc1ccn([C@@H]2CC[C@H](CO)O2)c(=O)n1 | PBMC | LAV | - | - | 0.26 µM
OCCN1CCN(CC/C=C2/c3ccccc3Sc3ccc(C(F)(F)F)cc32)CC1 | MOLT-3 | IIIB | - | - | <2 µg/mL
C[C@@H]1CC[C@H]2[C@@H](C)CO[C@@H]3OC4(C)CC[C@@H]1[C@]32OO4 | PBMC | LAV | - | - | >100 µM
Cc1cn([C@@H]2CC[C@H](CO)O2)c(=O)[nH]c1=O | PBMC | LAV | - | - | >100 µM
CC(C)(C)C(=O)SCCOC(=O)P(=O)(O)OCCSC(=O)C(C)(C)C | CEM + CEM-SS | LAI | - | - | 27 µM
Nc1ncnc2c1ncn2[C@@H]1C[C@@H](F)[C@H](CO)O1 | PBMC | LAV | - | - | >100 µM
O=C(NCc1ccc(F)cc1)c1nc(N2CCCCS2(=O)=O)c2cccnc2c1O | PBMC | BaL | - | - | 0.003 µM
CCCCCCCCOC(=O)P(=O)(OCc1ccc(Cl)cc1)OCc1ccc(Cl)cc1 | CEM + CEM-SS | LAI | - | - | >10 µM
Cc1cn([C@H]2O[C@H](CO)C=C2F)c(=O)nc1N | PBMC | LAV | - | - | >100 µM
CC(=O)c1cn(CC=C(CO)CO)c(=O)[nH]c1=O | PBMC | LAI | - | - | 25.1 µM
Cc1cn([C@H]2C[C@H](N=[N+]=[N-])[C@@H](COP(=O)(OCCS[C@@H]3O[C@H](CO)[C@@H](O)[C@H](O)[C@H]3O)OCCS[C@@H]3O[C@H](CO)[C@@H](O)[C@H](O)[C@H]3O)O2)c(=O)[nH]c1=O | PBMC | BaL | - | - | 0.01 µM
Cc1cn([C@H]2C[C@H](N=[N+]=[N-])[C@@H](CO)O2)c(=O)[nH]c1=O | CEM + CEM-SS | LAI | - | - | 0.004 µM
Cc1cn([C@@H]2C[C@H](O)[C@H](CO)O2)c(=O)[nH]c1=O | PBMC | LAV | - | - | >10 µM
O=c1[nH]cnc2c1ncn2[C@H]1CC[C@@](F)(CCP(=O)(O)O)C1 | PBMC | LAI | - | - | 10.3 µM
CCCCCC#Cc1cn(COCCO)c(=O)[nH]c1=O | PBMC | LAI | - | - | ~100 µM
Nc1ncnc2c1ncn2[C@@H]1C=C[C@H](CO)O1 | PBMC | LAV | - | - | 0.38 µM
Cc1cn([C@H]2C=C[C@@H](CO)O2)c(=O)[nH]c1=O | MT-4 | IIIB | - | - | 1.6 µM
CC(C)(C)NC(=O)[C@@H]1CN(Cc2cccnc2)CCN1C[C@@H](O)C[C@@H](Cc1ccccc1)C(=O)N[C@H]1c2ccccc2C[C@H]1O | MT-2 | BRU | - | - | 0.0287 µM
CCCCCCCCC#Cc1cn(C/C=C/C(O)CO)c(=O)[nH]c1=O | PBMC | LAI | - | - | 57.3 µM
Cc1cn([C@H]2C[C@H](N=[N+]=[N-])[C@@H](CO)O2)c(=O)[nH]c1=O | PBL | Clinical isolate | - | - | 0.002 µM
Cc1cn([C@@H]2C[C@@H](N=[N+]=[N-])[C@H](CO)O2)c(=O)[nH]c1=O | PBMC | LAV | - | - | >100 µM
OCCN1CCN(CC/C=C2\c3ccccc3Sc3ccc(C(F)(F)F)cc32)CC1 | MOLT-3 | IIIB | - | - | <10 µg/mL
OO | PBMC | BaL | - | - | >10 µM
Nc1ccn([C@H]2CC[C@@H](CO)O2)c(=O)n1 | MT-4 | HXB2-D294 (RT-P294S) | - | RT-P294S | 0.46 µM
Nc1ncnc2c1ncn2[C@H]1CC[C@@](F)(CCP(=O)(O)O)C1 | PBMC | LAI | - | - | 47.9 µM
CC[C@@]1([C@@H]2O[C@@H]([C@H]3O[C@@](O)(CO)[C@H](C)C[C@@H]3C)C[C@@H]2C)CC[C@H]([C@]2(C)CC[C@]3(C[C@H](O)[C@@H](C)[C@@H]([C@@H](C)[C@@H](OC)[C@H](C)C(=O)O)O3)O2)O1 | U-937 | IIIB | - | - | 0.5 µg/mL
O=c1ccccc(-c2cncnc2)c1O | CEM + CEM-SS | LAI | - | - | 40 µM
CC[C@@H](O)[C@]1(C)C[C@H](C)[C@@](O)([C@H]2C[C@H](C)[C@H]([C@]3(C)CC[C@H]([C@@H]4CC[C@@]5(O[C@H]([C@@H](C)[C@@H](OC)[C@H](C)C(=O)O)[C@H](C)[C@@H](OC)[C@H]5C)O4)O3)O2)O1 | U-937 | IIIB | - | - | 0.1 µg/mL
CCCCCCCCCCCCCCCCOC[C@H](CCl)OP(=O)(O)OCC[N+](C)(C)C | H9 | IIIB | - | - | ~1 µM
O=c1[nH]c(=O)n(COCCO)cc1C#Cc1ccccc1 | PBMC | LAI | - | - | >100 µM

A second listing of 4 rows from above:

{"smiles": "CC(C)(C)C(=O)SCCOC(=O)P(=O)(O)OCCSC(=O)C(C)(C)C", "cells": "CEM + CEM-SS", "strain or isolate": "LAI", "result": "27 µM"}
{"smiles": "CC(C)(C)C(=O)SCCOC(=O)P(=O)(OCCSC(=O)C(C)(C)C)OCCSC(=O)C(C)(C)C", "cells": "CEM + CEM-SS", "strain or isolate": "LAI", "result": ">10 µM"}
{"smiles": "Cc1cn([C@H]2C[C@H](N=[N+]=[N-])[C@@H](COP(=O)(O)OC[C@H]3OC(O)[C@H](O)[C@@H](O)[C@@H]3O)O2)c(=O)[nH]c1=O", "cells": "U-937", "strain or isolate": "LAV-Bru", "setting": "14 d", "result": ">25 µM"}
{"smiles": "O=c1ccccc(-c2cncnc2)c1O", "cells": "CEM + CEM-SS", "strain or isolate": "LAI", "result": "40 µM"}

ECn: concentration that inhibits the pathogen or its effect by n%. a–b is a range or a potency band. Blank or dashed fields: not listed here.